Pooled drug test results. Numbers come from NIAID ChemDB, via PubChem.

Shared fields: growth or infection tests; agent: HIV-1; read-out: fold resistance

Lines come from different laboratories, so protocols vary. An empty or dashed field is not shown. Fold resistance has wild type as its base.

SMILES	cells	method	strain	mutations	result
Cc1cc(S(N)(=O)=O)ccc1NC(=O)COc1ccc(Cl)cc1C(=O)c1cc(Cl)cc(C#N)c1	MAGI	β-galactosidase	NNRTI-resistant (RT V108I)	RT-V108I	1.7
CC(C)=CCN1c2cc(Cl)cc3[nH]c(=S)n(c23)C[C@@H]1C	MT-4	-	-	RT-D67N K70R T215Y K219Q K103N	8
Cc1ccc(S(=O)(=O)N(CC(C)C)C[C@@H](O)[C@H](Cc2ccccc2)NC(=O)O[C@H]2CO[C@H]3OCC[C@H]32)cc1	MT-2	p24 / ELISA	IIIB	I401T	1.8
Cc1ccnc2c1NC(=O)c1cccnc1N2C1CC1	CEM + CEM-SS	cytopathic effect / XTT	Diphenyl sulfone-resistant (RT-Y181C)	RT-Y181C	590
Cc1cn([C@H]2C[C@H](N=[N+]=[N-])[C@@H](CO)O2)c(=O)[nH]c1=O	CEM + CEM-SS	XTT	NL4-3	RT-V179D	3
O=C(NCc1ccc(F)cc1)c1nc(N2CCCCS2(=O)=O)c2cccnc2c1O	-	-	-	INTG-S153 N155S	15
CCOP(=O)(COc1ccc(C[C@H](NC(=O)O[C@H]2CO[C@H]3OCC[C@H]32)[C@H](O)CN(CC(C)C)S(=O)(=O)c2ccc(OC)cc2)cc1)OCC	MT-2	ATP	IIIB	8374-P47 GS-8374-resistant	9.5
Fc1cccc(F)c1C1SCc2nc3ccccc3n21	CEM + CEM-SS	XTT	Dihydrocostatolide-resistant (RT-L100I)	RT-L100I	9.12
CCCc1cc(=O)oc2c3c(c4c(c12)OC(C)(C)C=C4)O[C@H](C)[C@@H](C)[C@@H]3O	CEM + CEM-SS	cytopathic effect / XTT	IIIB	RT-Y181C	0.1
CCc1c(C(=O)c2cc(C)cc(C)c2)n(CC2CC=CC2)c(=O)[nH]c1=O	CEM + CEM-SS	cytopathic effect / XTT	NL4-3	RT-K103N	>70
O=c1[nH]cnc2c1ncn2[C@H]1CC[C@@H](CO)O1	-	-	-	RT-L74V	>2
Cc1cn([C@H]2C[C@H](N=[N+]=[N-])[C@@H](CO)O2)c(=O)[nH]c1=O	-	-	-	INTG-T66I N155S	1
CCN(c1nc(F)ccc1NC(C)(C)C)C1CCN(C(=O)c2cc3cc(NC(=O)N4CCN(C)CC4)ccc3[nH]2)CC1	MT-2	p24 / ELISA	IIIB	K112M K113E V128I	1.5
Cc1ccnc2c1NC(=O)c1cccnc1N2C1CC1	CEM	cytopathic effect	A-0 (RT-L100I)	RT-L100I	3
Cc1ccnc2c1NC(=O)c1cccnc1N2C1CC1	HT4 + HT4 LacZ-1	plaque count	HXB2	RT-M41L T215Y	0.833
CC(C)CN(C[C@@H](O)[C@H](Cc1ccccc1)NC(=O)[C@H](CC(N)=O)NC(=O)c1ccc2ccccc2n1)C(=O)NC(C)(C)C	MT-4	p24	NL4-3	PR-L10R M46I L63P	1
C[C@H](Cn1cnc2c(N)ncnc21)OCP(=O)(O)O	HeLa	luciferase	Recombinant	RT-M41L A62V S68N G112S V118I M184V	0.4
CC(C)=CCOc1cc(NC(=S)c2ccoc2C)ccc1Cl	CEM	cytopathic effect	E-2 (RT-V106A)	RT-V106A	3
Cc1occc1C(=S)Nc1ccc(Cl)c(/C=N/OC(C)(C)C)c1	CEM + CEM-SS	XTT	Calanolide A-resistant (RT T139I)	RT-T139I	3
CC(=O)c1ccc(C)cc1NC(C(N)=O)c1c(Cl)cccc1Cl	MAGI	MTT	IIIB	RT-V103A	7.11
Cc1ccnc2c1NC(=O)c1cccnc1N2C1CC1	CEM + CEM-SS	XTT	UC38-resistant (RT Y181C)	RT-Y181C	190
Cn1c2ccccc2c2c1cc(C#N)c(=O)n2-c1ccc([N+](=O)[O-])cc1	HeLa	luciferase	NRTI resistant	RT-K65R K70R V75I F77L F116Y Q151M	1.6
Cc1cn([C@H]2C[C@H](N=[N+]=[N-])[C@@H](CO)O2)c(=O)[nH]c1=O	CEM + CEM-SS	cytopathic effect / XTT	NL4-3	RT-Y188C	6
O=S(=O)(c1ccccc1)c1ccccc1	CEM + CEM-SS	cytopathic effect / XTT	UC040-R (RT-Y181C)	RT-Y181C	>16.3
CC[C@H]1C(=O)Nc2ccc(F)cc2N1C(=O)OC(C)C	CEM	cytopathic effect	C-1 (RT-K101E)	RT-K101E	3
Cc1cn([C@H]2C=C[C@@H](CO)O2)c(=O)[nH]c1=O	HeLa	luciferase	Recombinant	RT-A62T V118I M184V	1.1
CCc1c(Sc2ccccn2)n(COCc2ccccc2)c(=O)[nH]c1=O	CEM + CEM-SS	cytopathic effect / XTT	IIIB	RT-Y181C	113
CC(C)Oc1ccc(Cc2ccccc2)cc1C(=O)CC(=O)C(=O)O	-	-	-	INTG-V151I	5
CCc1c(Sc2ccccn2)n(COCc2ccccc2)c(=O)[nH]c1=O	CEM + CEM-SS	cytopathic effect / XTT	UC781-R (RT-Y181C)	RT-Y181C	155
CC(C)(C)NC(=O)[C@@H]1C[C@@H]2CCCC[C@@H]2CN1C[C@@H](O)[C@H](Cc1ccccc1)NC(=O)[C@H](CC(N)=O)NC(=O)c1ccc2ccccc2n1	MT-4	p24	NL4-3	PR-M46I L63P V82T I84V	8
Nc1nc2c(ncn2[C@H]2CO[C@@H](CO)O2)c(=O)[nH]1	-	-	RT-69N 70R 151M 215F	RT-T69N K70R Q151M T215F	4.7
CC(C)OC(=O)OCOP(=O)(CO[C@H](C)Cn1cnc2c(N)ncnc21)OCOC(=O)OC(C)C	MT-2	p24	M184V (3TC-resistant RT M184V)	RT-M184V	1.18
O=c1[nH]cnc2c1ncn2[C@H]1CC[C@@H](CO)O1	HELA-CD4+	plaque count	JF8(RT-D67N T69D)	RT-D67N T69D	1
Cc1occc1C(=S)Nc1ccc(Cl)c(/C=N/OC(C)(C)C)c1	CEM + CEM-SS	cytopathic effect / XTT	NL4-3 (RT K101E)	RT-K101E	12.5

The last 4 rows once more:

SMILES	cells	method	strain	mutations	result
Nc1nc2c(ncn2[C@H]2CO[C@@H](CO)O2)c(=O)[nH]1	-	-	RT-69N 70R 151M 215F	RT-T69N K70R Q151M T215F	4.7
CC(C)OC(=O)OCOP(=O)(CO[C@H](C)Cn1cnc2c(N)ncnc21)OCOC(=O)OC(C)C	MT-2	p24	M184V (3TC-resistant RT M184V)	RT-M184V	1.18
O=c1[nH]cnc2c1ncn2[C@H]1CC[C@@H](CO)O1	HELA-CD4+	plaque count	JF8(RT-D67N T69D)	RT-D67N T69D	1
Cc1occc1C(=S)Nc1ccc(Cl)c(/C=N/OC(C)(C)C)c1	CEM + CEM-SS	cytopathic effect / XTT	NL4-3 (RT K101E)	RT-K101E	12.5